Literature values as cited in article PMC4160447.

The chains behind the UniProt entries cited, without tags or fusion partners.
UniProt P08104, whole entry: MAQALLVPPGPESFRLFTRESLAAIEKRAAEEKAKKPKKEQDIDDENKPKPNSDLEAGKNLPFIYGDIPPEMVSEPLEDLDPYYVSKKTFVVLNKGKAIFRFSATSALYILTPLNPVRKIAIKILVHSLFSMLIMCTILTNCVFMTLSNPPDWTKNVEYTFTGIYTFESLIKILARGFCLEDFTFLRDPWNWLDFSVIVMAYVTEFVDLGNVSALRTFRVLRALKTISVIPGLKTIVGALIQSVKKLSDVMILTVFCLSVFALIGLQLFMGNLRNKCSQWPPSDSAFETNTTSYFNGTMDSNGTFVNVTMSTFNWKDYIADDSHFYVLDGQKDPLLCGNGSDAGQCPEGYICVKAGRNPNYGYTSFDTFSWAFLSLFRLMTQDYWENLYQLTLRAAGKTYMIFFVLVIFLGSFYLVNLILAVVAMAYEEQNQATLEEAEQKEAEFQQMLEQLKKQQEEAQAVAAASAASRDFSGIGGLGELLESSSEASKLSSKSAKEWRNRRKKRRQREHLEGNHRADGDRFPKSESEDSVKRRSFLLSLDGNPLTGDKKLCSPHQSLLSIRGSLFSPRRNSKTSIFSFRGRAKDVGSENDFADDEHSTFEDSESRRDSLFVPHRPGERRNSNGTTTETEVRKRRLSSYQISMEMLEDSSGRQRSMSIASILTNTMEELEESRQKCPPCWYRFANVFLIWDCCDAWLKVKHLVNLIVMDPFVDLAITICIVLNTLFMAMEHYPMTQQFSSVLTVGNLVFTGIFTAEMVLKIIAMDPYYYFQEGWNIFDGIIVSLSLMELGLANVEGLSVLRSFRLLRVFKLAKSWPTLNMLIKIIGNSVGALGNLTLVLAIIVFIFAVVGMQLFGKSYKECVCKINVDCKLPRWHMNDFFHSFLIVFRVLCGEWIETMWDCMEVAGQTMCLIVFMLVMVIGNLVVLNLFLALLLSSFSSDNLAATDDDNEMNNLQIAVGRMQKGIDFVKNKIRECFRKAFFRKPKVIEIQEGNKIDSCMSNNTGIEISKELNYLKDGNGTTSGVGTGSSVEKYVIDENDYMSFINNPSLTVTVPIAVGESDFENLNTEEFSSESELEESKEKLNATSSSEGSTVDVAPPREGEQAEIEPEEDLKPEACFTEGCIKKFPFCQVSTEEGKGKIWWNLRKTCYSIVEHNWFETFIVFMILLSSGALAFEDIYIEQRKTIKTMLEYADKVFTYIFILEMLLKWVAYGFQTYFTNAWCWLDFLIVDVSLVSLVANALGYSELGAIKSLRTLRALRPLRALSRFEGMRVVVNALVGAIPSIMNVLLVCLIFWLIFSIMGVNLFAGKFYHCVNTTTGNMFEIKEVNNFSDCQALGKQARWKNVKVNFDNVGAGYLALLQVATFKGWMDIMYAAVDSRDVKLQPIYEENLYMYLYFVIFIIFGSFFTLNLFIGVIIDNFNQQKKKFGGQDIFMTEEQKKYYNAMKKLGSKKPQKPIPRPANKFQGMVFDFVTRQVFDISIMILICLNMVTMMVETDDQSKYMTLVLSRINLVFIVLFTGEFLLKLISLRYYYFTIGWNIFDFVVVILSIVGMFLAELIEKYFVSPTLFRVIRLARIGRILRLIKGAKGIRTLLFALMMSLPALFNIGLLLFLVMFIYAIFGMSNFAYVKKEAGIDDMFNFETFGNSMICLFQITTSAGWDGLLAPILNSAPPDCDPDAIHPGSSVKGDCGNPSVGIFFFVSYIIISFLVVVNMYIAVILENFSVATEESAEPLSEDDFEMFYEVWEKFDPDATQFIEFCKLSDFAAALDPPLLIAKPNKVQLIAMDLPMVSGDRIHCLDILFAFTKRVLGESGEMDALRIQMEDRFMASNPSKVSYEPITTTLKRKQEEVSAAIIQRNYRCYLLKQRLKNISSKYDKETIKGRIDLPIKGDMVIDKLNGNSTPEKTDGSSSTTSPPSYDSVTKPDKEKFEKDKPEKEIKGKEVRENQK

Target: NaV1.3 (Rattus norvegicus) (UniProt P08104)

mu-conotoxin BuIIIB (from UniProt C1J5M6)
Kd: 200 nM
